Data published in patent US20240294572A1, “Antimicrobial Peptides” (priority 2021, published 2024).
Non-standard residues stand in square brackets, D forms with d. Residues, ends and D or L forms follow the SMILES beside them. *: point of attachment. Myristoyl = CCCCCCCCCCCCCC(=O)*; Lauroyl = CCCCCCCCCCCC(=O)*; Decanoyl = CCCCCCCCCC(=O)*; Octanoyl = CCCCCCCC(=O)*; Hexanoyl = CCCCCC(=O)*

Tested on: human red blood cells (hRBCs)
Type: cell-based
Conditions: cell selectivity index = HC50/MIC against S. aureus
Procedure: Hemolytic assays of peptides were performed as described (Lakshmaiah, et al. (2020) Proc. Natl. Acad. Sci., 117:19446-19454). Briefly, human red blood cells (hRBCs) were obtained from UNMC Blood Bank. The cells were washed 3× with isotonic saline (0.9% NaCl) and diluted to 2% (v/v). Peptides at various concentrations were added to the 2% blood cells and incubated at 37° C. for 1 hour. Post-incubation, the plates were spun at 2000 rpm for 10 minutes; aliquots of the supernatant were carefully transferred to a fresh 96-well microplate. The amount of cells lysed is proportional to the hemoglobin released and was measured at 545 nm using a ChroMate® microplate reader (Awareness Technology, FL). The percent lysis was calculated by assuming 100% release when human blood cells were treated with 1% Triton™ X-100, and 0% release when incubated with PBS. The peptide concentration that caused 50% lysis of hRBCs is defined as HC50. The cell selectivity index (CSI) was calculated as the ratio between HC50 and the MIC of the corresponding peptide against MRSA.

Row | Compound | CSI
1 | CCCCCC(=O)N[C@@H](CCCCN)C(=O)N[C@@H](CCCNC(=N)N)C(=O)N[C@H](C(=O)N[C@@H](Cc1c[nH]c2ccccc12)C(=O)N[C@@H](CCC(N)=O)C(=O)N[C@@H](CCCNC(=N)N)C(=O)N[C@H](C(=O)N[C@@H](CCCCN)C(=O)N[C@@H](CC(=O)O)C(=O)N[C@@H](Cc1ccccc1)C(N)=O)[C@@H](C)CC)[C@@H](C)CC [Peptide C6-KR10] (Hexanoyl-KRIWQRIKDF-NH2) | >8
2 | CCCCCC(=O)N[C@@H](CCCCN)C(=O)N[C@@H](CCCNC(=N)N)C(=O)N[C@H](C(=O)N[C@@H](Cc1c[nH]c2ccccc12)C(=O)N[C@@H](CCC(N)=O)C(=O)N[C@@H](CCCNC(=N)N)C(=O)N[C@H](C(=O)N[C@@H](CCCCN)C(=O)N[C@@H](CC(=O)O)C(=O)N[C@@H](Cc1ccccc1)C(=O)N[C@@H](CC(C)C)C(=O)N[C@@H](CCCNC(=N)N)C(N)=O)[C@@H](C)CC)[C@@H](C)CC [Peptide C6-KR12] (Hexanoyl-KRIWQRIKDFLR-NH2) | 16
3 | CCCCCCCC(=O)N[C@@H](CCCCN)C(=O)N[C@@H](CCCNC(=N)N)C(=O)N[C@H](C(=O)N[C@@H](Cc1c[nH]c2ccccc12)C(=O)N[C@@H](CCC(N)=O)C(=O)N[C@@H](CCCNC(=N)N)C(=O)N[C@H](C(=O)N[C@@H](CCCCN)C(N)=O)[C@@H](C)CC)[C@@H](C)CC [Peptide C8-KR8] (Octanoyl-KRIWQRIK-NH2) | 32
4 | CCCCCCCC(=O)N[C@@H](CCCCN)C(=O)N[C@@H](CCCNC(=N)N)C(=O)N[C@H](C(=O)N[C@@H](Cc1c[nH]c2ccccc12)C(=O)N[C@@H](CCC(N)=O)C(=O)N[C@@H](CCCNC(=N)N)C(=O)N[C@H](C(=O)N[C@@H](CCCCN)C(=O)N[C@@H](CC(=O)O)C(=O)N[C@@H](Cc1ccccc1)C(N)=O)[C@@H](C)CC)[C@@H](C)CC [Peptide C8-KR10] (Octanoyl-KRIWQRIKDF-NH2) | 40-80
5 | CCCCCCCC(=O)N[C@H](CCCCN)C(=O)N[C@H](CCCNC(=N)N)C(=O)N[C@@H](C(=O)N[C@H](Cc1c[nH]c2ccccc12)C(=O)N[C@H](CCC(N)=O)C(=O)N[C@H](CCCNC(=N)N)C(=O)N[C@@H](C(=O)N[C@H](CCCCN)C(=O)N[C@H](CC(=O)O)C(=O)N[C@H](Cc1ccccc1)C(N)=O)[C@H](C)CC)[C@H](C)CC [Peptide C8-KR10d] (Octanoyl-[dK][dR][dI][dW][dQ][dR][dI][dK][dD][dF]-NH2) | 48
6 | CCCCCCCC(=O)N[C@@H](CCCCN)C(=O)N[C@@H](CCCNC(=N)N)C(=O)N[C@H](C(=O)N[C@@H](Cc1c[nH]c2ccccc12)C(=O)N[C@@H](CCC(N)=O)C(=O)N[C@@H](CCCNC(=N)N)C(=O)N[C@H](C(=O)N[C@@H](CCCCN)C(=O)N[C@@H](CC(=O)O)C(=O)N[C@@H](Cc1ccccc1)C(=O)N[C@@H](CC(C)C)C(=O)N[C@@H](CCCNC(=N)N)C(N)=O)[C@@H](C)CC)[C@@H](C)CC [Peptide C8-KR12] (Octanoyl-KRIWQRIKDFLR-NH2) | <8
7 | CCCCCCCCCC(=O)N[C@@H](CCCCN)C(=O)N[C@@H](CCCNC(=N)N)C(=O)N[C@H](C(=O)N[C@@H](Cc1c[nH]c2ccccc12)C(N)=O)[C@@H](C)CC [Peptide C10-KR4] (Decanoyl-KRIW-NH2) | 12
8 | CCCCCCCCCC(=O)N[C@@H](CCCCN)C(=O)N[C@@H](CCCNC(=N)N)C(=O)N[C@H](C(=O)N[C@@H](Cc1c[nH]c2ccccc12)C(=O)N[C@@H](CCC(N)=O)C(=O)N[C@@H](CCCNC(=N)N)C(N)=O)[C@@H](C)CC [Peptide C10-KR6] (Decanoyl-KRIWQR-NH2) | >27
9 | CCCCCCCCCC(=O)N[C@@H](CCCCN)C(=O)N[C@@H](CCCNC(=N)N)C(=O)N[C@H](C(=O)N[C@@H](Cc1c[nH]c2ccccc12)C(=O)N[C@@H](CCC(N)=O)C(=O)N[C@@H](CCCNC(=N)N)C(=O)N[C@H](C(=O)N[C@@H](CCCCN)C(N)=O)[C@@H](C)CC)[C@@H](C)CC [Peptide C10-KR8] (Decanoyl-KRIWQRIK-NH2) | 200
10 | CCCCCCCCCC(=O)N[C@H](CCCCN)C(=O)N[C@H](CCCNC(=N)N)C(=O)N[C@@H](C(=O)N[C@H](Cc1c[nH]c2ccccc12)C(=O)N[C@H](CCC(N)=O)C(=O)N[C@H](CCCNC(=N)N)C(=O)N[C@@H](C(=O)N[C@H](CCCCN)C(N)=O)[C@H](C)CC)[C@H](C)CC [Peptide C10-KR8d] (Decanoyl-[dK][dR][dI][dW][dQ][dR][dI][dK]-NH2) | 200
11 | CCCCCCCCCC(=O)N[C@@H](CCCCN)C(=O)N[C@@H](CCCNC(=N)N)C(=O)N[C@H](C(=O)N[C@@H](Cc1c[nH]c2ccccc12)C(=O)N[C@@H](CCC(N)=O)C(=O)N[C@@H](CCCNC(=N)N)C(=O)N[C@H](C(=O)N[C@@H](CCCCN)C(=O)N[C@@H](CC(=O)O)C(=O)N[C@@H](Cc1ccccc1)C(N)=O)[C@@H](C)CC)[C@@H](C)CC [Peptide C10-KR10] (Decanoyl-KRIWQRIKDF-NH2) | 33
12 | CCCCCCCCCC(=O)N[C@@H](CCCCN)C(=O)N[C@@H](CCCNC(=N)N)C(=O)N[C@H](C(=O)N[C@@H](Cc1c[nH]c2ccccc12)C(=O)N[C@@H](CCC(N)=O)C(=O)N[C@@H](CCCNC(=N)N)C(=O)N[C@H](C(=O)N[C@@H](CCCCN)C(=O)N[C@@H](CC(=O)O)C(=O)N[C@@H](Cc1ccccc1)C(=O)N[C@@H](CC(C)C)C(=O)N[C@@H](CCCNC(=N)N)C(N)=O)[C@@H](C)CC)[C@@H](C)CC [Peptide C10-KR12] (Decanoyl-KRIWQRIKDFLR-NH2) | <8
13 | CCCCCCCCCCCC(=O)N[C@@H](CCCCN)C(=O)N[C@@H](CCCNC(=N)N)C(=O)N[C@H](C(=O)N[C@@H](Cc1c[nH]c2ccccc12)C(N)=O)[C@@H](C)CC [Peptide C12-KR4] (Lauroyl-KRIW-NH2) | 10
14 | CCCCCCCCCCCC(=O)N[C@@H](CCCCN)C(=O)N[C@@H](CCCNC(=N)N)C(=O)N[C@H](C(=O)N[C@@H](Cc1c[nH]c2ccccc12)C(=O)N[C@@H](CCC(N)=O)C(=O)N[C@@H](CCCNC(=N)N)C(N)=O)[C@@H](C)CC [Peptide C12-KR6] (Lauroyl-KRIWQR-NH2) | 24
15 | CCCCCCCCCCCC(=O)N[C@@H](CCCCN)C(=O)N[C@@H](CCCNC(=N)N)C(=O)N[C@H](C(=O)N[C@@H](Cc1c[nH]c2ccccc12)C(=O)N[C@@H](CCC(N)=O)C(=O)N[C@@H](CCCNC(=N)N)C(=O)N[C@H](C(=O)N[C@@H](CCCCN)C(N)=O)[C@@H](C)CC)[C@@H](C)CC [Peptide C12-KR8] (Lauroyl-KRIWQRIK-NH2) | 24
16 | CCCCCCCCCCCC(=O)N[C@@H](CCCCN)C(=O)N[C@@H](CCCNC(=N)N)C(=O)N[C@H](C(=O)N[C@@H](Cc1c[nH]c2ccccc12)C(=O)N[C@@H](CCC(N)=O)C(=O)N[C@@H](CCCNC(=N)N)C(=O)N[C@H](C(=O)N[C@@H](CCCCN)C(=O)N[C@@H](CC(=O)O)C(=O)N[C@@H](Cc1ccccc1)C(N)=O)[C@@H](C)CC)[C@@H](C)CC [Peptide C12-KR10] (Lauroyl-KRIWQRIKDF-NH2) | <16
17 | CCCCCCCCCCCC(=O)N[C@@H](CCCCN)C(=O)N[C@@H](CCCNC(=N)N)C(=O)N[C@H](C(=O)N[C@@H](Cc1c[nH]c2ccccc12)C(=O)N[C@@H](CCC(N)=O)C(=O)N[C@@H](CCCNC(=N)N)C(=O)N[C@H](C(=O)N[C@@H](CCCCN)C(=O)N[C@@H](CC(=O)O)C(=O)N[C@@H](Cc1ccccc1)C(=O)N[C@@H](CC(C)C)C(=O)N[C@@H](CCCNC(=N)N)C(N)=O)[C@@H](C)CC)[C@@H](C)CC [Peptide C12-KR12] (Lauroyl-KRIWQRIKDFLR-NH2) | <4
18 | CCCCCCCCCCCCCC(=O)N[C@@H](CCCCN)C(=O)N[C@@H](CCCNC(=N)N)C(=O)N[C@H](C(=O)N[C@@H](Cc1c[nH]c2ccccc12)C(N)=O)[C@@H](C)CC [Peptide C14-KR4] (Myristoyl-KRIW-NH2) | <8
19 | CCCCCCCCCCCCCC(=O)N[C@@H](CCCCN)C(=O)N[C@@H](CCCNC(=N)N)C(=O)N[C@H](C(=O)N[C@@H](Cc1c[nH]c2ccccc12)C(=O)N[C@@H](CCC(N)=O)C(=O)N[C@@H](CCCNC(=N)N)C(N)=O)[C@@H](C)CC [Peptide C14-KR6] (Myristoyl-KRIWQR-NH2) | <8
20 | CCCCCCCCCCCCCC(=O)N[C@@H](CCCCN)C(=O)N[C@@H](CCCNC(=N)N)C(=O)N[C@H](C(=O)N[C@@H](Cc1c[nH]c2ccccc12)C(=O)N[C@@H](CCC(N)=O)C(=O)N[C@@H](CCCNC(=N)N)C(=O)N[C@H](C(=O)N[C@@H](CCCCN)C(N)=O)[C@@H](C)CC)[C@@H](C)CC [Peptide C14-KR8] (Myristoyl-KRIWQRIK-NH2) | <16
21 | CCCCCCCCCCCCCC(=O)N[C@@H](CCCCN)C(=O)N[C@@H](CCCNC(=N)N)C(=O)N[C@H](C(=O)N[C@@H](Cc1c[nH]c2ccccc12)C(=O)N[C@@H](CCC(N)=O)C(=O)N[C@@H](CCCNC(=N)N)C(=O)N[C@H](C(=O)N[C@@H](CCCCN)C(=O)N[C@@H](CC(=O)O)C(=O)N[C@@H](Cc1ccccc1)C(N)=O)[C@@H](C)CC)[C@@H](C)CC [Peptide C14-KR10] (Myristoyl-KRIWQRIKDF-NH2) | <8
